3 compounds from PMC8011081, “Bio-guided isolation of anti-leishmanial natural products from Diospyros gracilescens L. (Ebenaceae)” (BMC Complementary Medicine and Therapies, 2021) can be followed below.

Data set [1] concerns L. donovani promastigotes (MHOM/SD/62/1S). The data set is described as follows: Inhibitory assay against L. donovani promastigotes (resazurin colorimetric assay). In kind it is cell-based, Leishmania donovani. The conditions noted are these: CC50/IC50; isolated compounds. On the procedure: The cryopreserved promastigote form of L. donovani (1S (MHOM/SD/62/1S) was obtained from Bei Resources (https://www.beiresources.org/) and is routinely cultured at the Antimicrobial and Biocontrol Agents Unit, University of Yaoundé I, in Medium 199 (Sigma, Darmstadt, Germany) supplemented with 10% Heat-Inactivated fetal Bovine Serum (HIFBS) (Sigma, Darmstadt, Germany) and 100 IU/mL penicillin and 100 μg/mL streptomycin. The culture was maintained in 75 Cm^2 cell culture flask at 28 °C and checked for growth daily and sub-cultured everyday 72 h.
The stock solutions were prepared by dissolving each sample in 100% dimethyl sulfoxide (DMSO) and subsequently diluted serially in non-supplemented culture medium. […] The viability rate of promastigotes positively correlated with the amount of pink resorufin that was produced through the reduction of blue resazurin by the dehydrogenase enzymes in the inner mitochondrial membrane of the living parasites. Briefly, promastigotes from a logarithmic phase culture (4 × 10^5 cells/mL; 90 μL) were seeded in 96-well microtiter plates and were treated with 10 μl of inhibitors at different triplicate concentrations ranging 100 μg/mL-0.16 μg/mL for extracts and fractions and 50 μg/mL-0.08 μg/mL for compounds. The final concentration of DMSO in each well was not higher than 1%. Plates were incubated for 28 h at 28 °C, followed by the addition of 1 mg/mL resazurin (Sigma, Darmstadt, Germany). […] After an additional incubation for 44 h, plates were then read on a Magelan Infinite M200 fluorescence multi-well plate reader (Tecan, Männedorf, Switzerland) at an excitation and emission wave lengths of 530 and 590 nm respectively.

Another data set deals with L. donovani amastigotes. The data set is described as follows: Inhibitory assay against intracellular L. donovani amastigotes in Raw 264.7 macrophages (resazurin). The class given is cell-based, Leishmania donovani. The conditions noted are these: CC50/IC50; isolated compounds. On the procedure:
The effect of plant isolates against the intracellular amastigote form of L. donovani was evaluated essentially as described by Jain et al. with some modifications. Briefly, macrophage Raw 264.7 cells ([…]) were seeded in 96 well plates and incubated for 6 h at 37 °C under 5% CO2 for adhesion of the cells. Afterwards, the non-adherent cells were washed-out with sterile PBS. The adherent Raw 264.7 cells were infected with metacyclic promastigotes (4 × 10^5 cells) at an infection ratio of 1:10 macrophage: parasites and incubated for 24 h at 37 °C under 5% CO2 in order to allow infection of macrophages by metacyclic promastigotes. Thereafter, the overlying medium was removed, and the monolayer cells with internalized amastigotes were carefully washed four times with PBS to remove free parasites. Freshly prepared M199 medium containing 10% FBS and the test extracts were added in triplicate to the infected cells at serially diluted concentrations and incubated for 48 h at 37 °C under 5% CO2. After incubation, 0.05% Sodium dodecyl sulfate (SDS) was added in each well for 30 s for controlled lysis followed by M199 with 10% FBS as macrophage lysis stopper. Resazurin reagent (250 μg/mL) was thereafter added in each well and the plates were incubated for 24 h followed by fluorescence recording at λexcitation = 530 nm and λemission = 590 nm using a Tecan Infinite M200 microplate reader (Tecan). Inhibition percentages were calculated using Microsoft Excel Software and median inhibitory concentration (IC50) obtained from dose-response curves using GraphPad Prism 5.0. Software.
Background: Alamar Blue is a resazurin reagent that responds to reducing activity.

For `C=C(C)[C@@H]1CC[C@]2(C)CC[C@]3(C)[C@H](CC[C@@H]4[C@@]5(C)CC[C@H](O)C(C)(C)[C@@H]5CC[C@]43C)[C@@H]12` [Lupeol (1), Lupeol], in data set [1], the “SI (Promastigotes)” value was 0.82. In the data set on L. donovani amastigotes, the “SI (Amastigotes)” value came to 0.41.
`C=C(C)[C@@H]1CC[C@]2(C(=O)O)CC[C@]3(C)[C@H](CC[C@@H]4[C@@]5(C)CC[C@H](O)C(C)(C)[C@@H]5CC[C@]43C)[C@@H]12` [Betulinic acid (3), Betulinic acid]: the “SI (Promastigotes)” value in data set [1] is 6.02. For the same compound, the “SI (Amastigotes)” value with L. donovani amastigotes turned out to be 4.46.
The matching figures for `CCC(CCC(C)C1CCC2C3CC=C4CC(OC5OC(CO)C(O)C(O)C5O)CCC4(C)C3CCC12C)C(C)C` [β-sitosterol glucoside (6), β-sitosterol 3-O-D-glucopyranoside]: 0.58 and 0.89.
